In article PMC12313075, “Legionella effector LpPIP recruits protein phosphatase 1 to the mitochondria to induce dephosphorylation of outer membrane proteins” (2025):

Molecular target: partner chain of the complex shown
Test: co-immunoprecipitation (anti-FLAG) and mass spectrometry
Conditions: read off a plot

B1: unnamed (protein)
parent chain 1: MQNEKEVKELIQSDKKKRVTWNDNQNEGQIDEKFLKIGTASTPYKNKLDESIAQLMEEGYSEIEATAITGKSVTPAGMVIYNNPVFYKSKESIDIEKANRYNFFSIKNIGLGIVALAAAATVGLVVSKNS
parent chain 2: MADAASQVLLGSGLTILSQPLMYVKVLIQVGYEPLPPTIGRNIFGRQVCQLPGLFSYAQHIASIDGRRGLFTGLTPRLCSGVLGTVVHGKVLQHYQESDKGEELGPGNVQKEVSSSFDHVIKETTREMIARSAATLITHPFHVITLRSMVQFIGRESKYCGLCDSIITIYREEGILGFFAGLVPRLLGDILSLWLCNSLAYLVNTYALDSGVSTMNEMKSYSQAVTGFFASMLTYPFVLVSNLMAVNNCGLAGGCPPYSPIYTSWIDCWCMLQKEGNMSRGNSLFFRKVPFGKTYCCDLKMLI
enrichment: 2.9 log2
